Fold change is the IC50 on the isolate divided by the IC50 on a reference virus; 1 = unchanged, higher = more resistant. Changes are given against the subtype B consensus. No active / inactive call. The values were gathered from many studies (numbered anew) with different assays, which the source does not name. Most viruses are clinical isolates; some are laboratory strains or clones with known resistance changes. Isolates with mixed residues are left out; stretches that were not sequenced show no change. Round top values that many isolates share are read here as limits; other very high values and 0.1 may be limits too.
compound: Cc1cn([C@H]2C[C@H](N=[N+]=[N-])[C@@H](CO)O2)c(=O)[nH]c1=O [zidovudine]; test: fold change of IC50 against reference virus; higher = more resistant
Experimental: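 Cell-culture drug susceptibility tests of virus bearing the reverse transcriptase of each isolate, gathered from many studies.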

Compared with “HIV-1 isolate 1031 (reverse transcriptase changes: D67N K70R K122E F214L T215Y K219Q A272P K277R A376T A400T D460N S468T H483Y K512Q S519N, study 3)”, “HIV-1 isolate 437 (reverse transcriptase changes: K122E F214L A272P K277R M357T A376T A400T N447S D460N S468T S519N, study 81)” is lower in “fold change of IC50 against reference virus” value (“fold change of IC50” for short): 120 for the first, 1 for the second.

First: HIV-1 isolate 1489 (reverse transcriptase changes: M41L K70R K122E F214L A272P K277R A376T A400T D460N S468T H483Y K512Q S519N, study 143)
Second: HIV-1 isolate 258 (reverse transcriptase changes: D17N R83K T286A E297K D324N I329L A360T K431N D460N S468P L491S L517I, study 103)
The “fold change of IC50” value of the first is higher: 9 for the first, 1 for the second.

First: HIV-1 isolate 1139 (reverse transcriptase changes: M41L K122E F214L T215Y A272P K277R A376T A400T D460N S468T H483Y K512Q S519N, study 3)
Second: HIV-1 isolate 1620 (reverse transcriptase changes: K65R D67N K70R K122E F214L T215Y K219Q A272P K277R M357T A376T A400T N447S D460N S468T S519N, study 81)
The “fold change of IC50” value of the first is higher: 60 for the first, 1.3 for the second.

Going from “HIV-1 isolate 230 (reverse transcriptase changes: D121H K122E I142V D177E G196E T215Y V245K, study 48)” to “HIV-1 isolate 1318 (reverse transcriptase changes: K122E F214L T215Y A272P K277R A376T A400T D460N S468T H483Y K512Q S519N, study 143)”, the “fold change of IC50” value falls from 190 to 16.

Going from “HIV-1 isolate 402 (reverse transcriptase changes: K70R K122E F214L A272P K277R A376T A400T D460N S468T H483Y K512Q S519N, study 143)” to “HIV-1 isolate 576 (reverse transcriptase changes: M41L D67N K122E F214L T215Y A272P K277R A376T A400T D460N S468T H483Y K512Q S519N, study 143)”, the “fold change of IC50” value rises from 8 to 43.

Compared with “HIV-1 isolate 889 (reverse transcriptase changes: K102Q S162C M184V K277R, study 1)”, “HIV-1 isolate 1220 (reverse transcriptase changes: M41L D67N K70R K122E M184V F214L T215Y A272P K277R M357T, study 34)” is higher in “fold change of IC50” value: 1 for the first, 7 for the second.

First: HIV-1 isolate 1601 (reverse transcriptase changes: M41L D67N K70R K122E F214L T215Y A272P K277R A376T A400T D460N S468T H483Y K512Q S519N, study 143)
Second: HIV-1 isolate 518 (reverse transcriptase changes: M41L K122E F214L T215Y A272P K277R M357T A376T A400T N447S D460N S468T S519N, study 103)
The “fold change of IC50” value of the first is higher: 180 for the first, 33 for the second.

First: HIV-1 isolate 700 (reverse transcriptase changes: K122E F214L T215Y A272P K277R A376T A400T D460N S468T H483Y K512Q S519N, study 72)
Second: HIV-1 isolate 1498 (reverse transcriptase changes: M41L K122E F214L T215Y A272P K277R A376T A400T D460N S468T H483Y K512Q S519N, study 143)
The “fold change of IC50” value of the first is lower: 4.4 for the first, 64 for the second.

Going from “HIV-1 isolate 1132 (reverse transcriptase changes: M41L D67N K70R K122E M184V T200I E203K L210W R211K K219E L228H V245E L283I T286P K311R G359S, study 34)” to “HIV-1 isolate 1239 (reverse transcriptase changes: R83K K122E I135T T165I D177E R211K T286P I293V E297K A376T T386I A400T, study 103)”, the “fold change of IC50” value falls from 80 to 1.

First: HIV-1 isolate 482 (reverse transcriptase changes: M41L W88G K122E F214L T215Y A272P K277R M357T A376T A400T N447S D460N S468T S519N, study 103)
Second: HIV-1 isolate 215 (reverse transcriptase changes: M41L I135T E204K L210W T215Y I293V E297K D324P I329L A360V K431N V435A D460N S468P L491S, study 103)
The “fold change of IC50” value of the first is lower: 1 for the first, 400 for the second.

Going from “HIV-1 isolate 1044 (reverse transcriptase changes: W88S K122E F214L A272P K277R M357T A376T A400T N447S D460N S468T S519N, study 67)” to “HIV-1 isolate 1002 (reverse transcriptase changes: K102Q S162C T215Y, study 39)”, the “fold change of IC50” value rises from 1 to 16.

Going from “HIV-1 isolate 1159 (reverse transcriptase changes: M41L K122E F214L A272P K277R A376T A400T D460N S468T H483Y K512Q S519N, study 143)” to “HIV-1 isolate 1179 (reverse transcriptase changes: K122E L210W F214L A272P K277R A376T A400T D460N S468T H483Y K512Q S519N, study 126)”, the “fold change of IC50” value falls from 4 to 2.

Going from “HIV-1 isolate 1408 (reverse transcriptase changes: K102Q S162C T215Y K277R, study 1)” to “HIV-1 isolate 507 (reverse transcriptase changes: K122E F214L T215Y A272P K277R A376T A400T D460N S468T H483Y K512Q S519N, study 103)”, the “fold change of IC50” value falls from 5 to 3.

Going from “HIV-1 isolate 623 (reverse transcriptase changes: M41L D67N K70R K122E F214L T215Y A272P K277R M357T A376T A400T N447S D460N S468T S519N, study 103)” to “HIV-1 isolate 109 (reverse transcriptase changes: E6D M41L E44D D67N K70R D121H K122E I135T T165I D177E L210W R211K T215Y T286P I293V E297K T369I A376T T386I K390R A400T, study 103)”, the “fold change of IC50” value rises from 134 to 240.

Compared with “HIV-1 isolate 925 (reverse transcriptase changes: D67N K70R K122E F214L T215Y K219Q A272P K277R M357T A376T A400T N447S D460N S468T S519N, study 103)”, “HIV-1 isolate 505 (reverse transcriptase changes: W88G K122E F214L A272P K277R M357T A376T A400T N447S D460N S468T S519N, study 103)” is lower in “fold change of IC50” value: 29 for the first, 0.2 for the second.

First: HIV-1 isolate 553 (reverse transcriptase changes: M41L K122E M184V T200I Q207E L210W R211K T215Y K219E A272P R284K I326V I329V R356K M357T A360T, study 34)
Second: HIV-1 isolate 1140 (reverse transcriptase changes: K122E L210W F214L A272P K277R A376T A400T D460N S468T H483Y K512Q S519N, study 103)
The “fold change of IC50” value of the first is higher: 32 for the first, 0.3 for the second.

Going from “HIV-1 isolate 924 (reverse transcriptase changes: M41L D67N K70R K122E F214L T215Y K219Q A272P K277R A376T A400T D460N S468T H483Y K512Q S519N, study 143)” to “HIV-1 isolate 68 (reverse transcriptase changes: K122E F214L T215Y A272P K277R A376T A400T D460N S468T H483Y K512Q S519N, study 3)”, the “fold change of IC50” value falls from 180 to 16.

Going from “HIV-1 isolate 954 (reverse transcriptase changes: M41L D67N K70R K122E F214L T215Y A272P K277R A376T A400T D460N S468T H483Y K512Q S519N, study 3)” to “HIV-1 isolate 290 (reverse transcriptase changes: M41L D67N K70R K122E F214L T215Y A272P K277R M357T, study 34)”, the “fold change of IC50” value rises from 180 to 200.

Compared with “HIV-1 isolate 293 (reverse transcriptase changes: M41L K122E L210W F214L T215Y A272P K277R A376T A400T D460N S468T H483Y K512Q S519N, study 126)”, “HIV-1 isolate 619 (reverse transcriptase changes: M41L K122E F214L T215Y A272P K277R A376T A400T D460N S468T H483Y K512Q S519N, study 72)” is lower in “fold change of IC50” value: 107 for the first, 4.4 for the second.

Compared with “HIV-1 isolate 937 (reverse transcriptase changes: K122E F214L A272P K277R A376T A400T D460N S468T H483Y K512Q S519N, study 143)”, “HIV-1 isolate 446 (reverse transcriptase changes: D67N K70R K122E F214L T215F K219Q A272P K277R A376T A400T D460N S468T H483Y K512Q S519N, study 143)” is higher in “fold change of IC50” value: 1 for the first, 150 for the second.

Going from “HIV-1 isolate 301 (reverse transcriptase changes: K102Q S162C T215Y L234I K277R, study 1)” to “HIV-1 isolate 687 (reverse transcriptase changes: M41L D67N K70R W88S K122E F214L T215Y A272P K277R M357T A376T A400T N447S D460N S468T S519N, study 103)”, the “fold change of IC50” value rises from 1 to 11.

Source: the supplement of paper PMC3578754
